Measured values from several laboratories, pooled; numbers as filed in NIAID ChemDB.

Shared fields: growth or infection tests; species: Mycobacterium smegmatis

Neighbouring rows are from separate reports.

structure | dose | strain or isolate | read-out | method | result
CCCCCCCCC#CCCCCCCC#CC(=O)O |  | mc2651 | MIC99 |  | >200 µM
CCCNCCNC(C)C | 125 µg/mL | ATCC 607 | inhibition |  | 100%
COc1c(N2CC[C@@H](CN)C2)c(F)cc2c(=O)[nH]c(=O)n(C3CC3)c12 |  | WT | MIC99 |  | 25 µg/mL
C1CCC(NCCNC2CCCC2)C1 | 250 µg/mL | ATCC 607 | inhibition |  | 100%
CCCCCCCCCCCCCCSCC#CC(=O)O |  | mc22389 | MIC99 |  | >200 µM
Cc1[nH]c(-c2ccc(-c3cccc(OC(F)(F)F)c3)o2)nc1-c1ccc(F)cc1 |  |  | MIC100 | broth dilution / turbidity | 11–20 µg/mL
C[C@H]1COc2c(N3CCC(O)(c4ccc(Cl)cc4)CC3)c(F)c([N+](=O)[O-])c3c(=O)c(C(=O)O)cn1c23 |  |  | MIC99 | agar | 6.04 µM
CCCCCCSCCCCCCCCCCC#CC(=O)O |  | mc2155 | MIC99 |  | 76.6 µM
Cc1[nH]c(-c2ccc(-c3cccc(F)c3C)o2)nc1-c1ccccc1 |  |  | MIC100 | broth dilution / turbidity | 11–20 µg/mL
CCCCCNCCNCCCCC | 250 µg/mL | ATCC 607 | inhibition |  | 100%
Cc1[nH]c(-c2ccc(-c3ccccc3OC(F)(F)F)o2)nc1-c1ccccc1Cl |  |  | MIC100 | broth dilution / turbidity | 11–20 µg/mL
CCCCC(C)NCCNC(C)CCCC |  | ATCC 607 | EC50 |  | <500 µg/mL
Cc1ccccc1-c1cnc(-c2ccc(-c3ccccc3OC(F)(F)F)o2)[nH]1 |  |  | MIC100 | broth dilution / turbidity | 11–20 µg/mL
CCC(C)(C)NCCNC(C)(C)CC |  | ATCC 607 | EC50 |  | >250 µg/mL
COc1c(N2CCC(N)C2)c(F)cc2c(=O)c(C(=O)O)cn(C3CC3)c12 |  | G89C mutant | MIC99 |  | 4 µg/mL
CCc1cc(C(N)=S)ccn1 |  | MC^2 144 | MIC |  | 10 µg/mL
C[C@H]1COc2c(N3CCN(C(=O)C4COc5ccccc5O4)CC3)c(F)cc3c(=O)c(C(=O)O)cn1c23 |  |  | MIC99 | agar | 49.07 µM
CC(C)(C)CC(C)(C)NCCNC(C)(C)CC(C)(C)C |  | ATCC 607 | EC50 |  | <30 µg/mL
COc1c(N2CC[C@@H](CN)C2)c(F)cc2c(=O)n(N)c(=O)n(C3CC3)c12 |  | D95Y mutant | MIC99 |  | 5 µg/mL
CC(C)NCCN(C)C(C)C | 1000 µg/mL | ATCC 607 | inhibition |  | 0%
CCCCCCCCCCCCCC#CCC#CC(=O)O |  | mc2651 | MIC99 |  | 172.3 µM
Cc1[nH]c(-c2ccc(-c3ccc(Cl)c(OC(F)(F)F)c3)o2)nc1-c1ccccc1 |  |  | MIC100 | broth dilution / turbidity | 20–50 µg/mL
CCCCCCCCCCCCCCCCCC#CC(=O)O |  | mc2651 | MIC99 |  | >200 µM
CC1COc2c(N3CCN(C(=O)c4ccco4)CC3)c(F)c([N+](=O)[O-])c3c(=O)c(C(=O)O)cn1c23 |  |  | MIC99 | agar | 3.21 µM
CNC(=O)[C@@H](C)[C@@H]1NC(=O)/C(=C(O)/C=C/C(C)=C/[C@@H](C)[C@@H]2O[C@]3(C)O[C@@H](C=C[C@]34CO4)[C@@H]2C)C1=O |  | SMR5 | MIC90 | resazurin | 100 µg/mL
COc1c(N2CC[C@H](N)C2)c(F)cc2c(=O)[nH]c(=O)n(C3CC3)c12 |  | A91V mutant | MIC99 |  | 200 µg/mL
CC(C)N[C@@H](C)[C@@H](C)NC(C)C | 1000 µg/mL | ATCC 607 | inhibition |  | 0%

For reference, 2 entries again:

structure | dose | strain or isolate | read-out | method | result
Cc1[nH]c(-c2ccc(-c3ccccc3OC(F)(F)F)o2)nc1-c1ccccc1Cl |  |  | MIC100 | broth dilution / turbidity | 11–20 µg/mL
CNC(=O)[C@@H](C)[C@@H]1NC(=O)/C(=C(O)/C=C/C(C)=C/[C@@H](C)[C@@H]2O[C@]3(C)O[C@@H](C=C[C@]34CO4)[C@@H]2C)C1=O |  | SMR5 | MIC90 | resazurin | 100 µg/mL

A number after MIC or MFC names an inhibition level or a share of isolates. ECn is the concentration giving n% inhibition of infection, replication or growth. Inhibition is in % at the dose shown (toxicity tests: loss of growth or viability). An empty or dashed field is not shown. Two numbers with a dash give a range or band.